Pooled drug test results. Numbers come from NIAID ChemDB, via PubChem.

All rows: cytotoxicity tests; cell line: H9; endpoint: CC50

CCn: concentration that lowers growth or viability of the cells by n%. Conditions beyond the fields shown may differ between rows.

compound	result
CCCCCCCCCCOC[C@H](CO[C@]1(C(=O)O)C[C@H](OS(=O)(=O)O)[C@@H](NC(C)=O)[C@H]([C@H](OS(=O)(=O)O)[C@@H](COS(=O)(=O)O)OS(=O)(=O)O)O1)OCCCCCCCCCC	>200 µM
Cc1cn([C@H]2C[C@H](N=[N+]=[N-])[C@@H](CO)O2)c(=O)[nH]c1=O	>30 µg/mL
COc1c2c(cc3c1-c1c(cc4c(c1OC)OCO4)C[C@H](C)[C@H](C)C3)OCO2	40 µg/mL
CC(C)(C)CC(=O)O[C@@H]1c2c(ccc3ccc(=O)oc23)OC(C)(C)[C@@H]1OC(=O)CC(C)(C)C	43.6 µM
Oc1cc(O)c2c(c1)O[C@@]1(c3ccc(O)c(O)c3)Oc3cc(O)c4c(c3[C@@H]2[C@H]1O)O[C@H](c1ccc(O)c(O)c1)[C@H](O)C4	>25 µM
CCCCCCCCCCCCCCOC[C@H](CO[C@]1(C(=O)O)C[C@H](OS(=O)(=O)O)[C@@H](NC(C)=O)[C@H]([C@H](OS(=O)(=O)O)[C@@H](COS(=O)(=O)O)OS(=O)(=O)O)O1)OCCCCCCCCCCCCCC	>200 µM
CCCCn1cc(N)c(=O)c2cnc(-c3ccncc3)nc21	>50 µM
CC1=CC(=O)O[C@@H]1[C@@]1(C)C[C@H]2OC(=O)CC3C(C)C(=O)C(O)=C1[C@]32CO	>287 µM
COc1cc2c(c(OC)c1OC)-c1c(cc3c(c1OC)OCO3)C(OC(=O)c1ccccc1)[C@@](C)(O)[C@@H](C)C2	1.8 µg/mL
CCCCn1ccc(=O)c2cnc(-c3ccncc3)nc21	35 µM
C[C@@]12CCC[C@@](C)(C(=O)O)[C@H]1CC[C@@]13C[C@@H](CC[C@H]12)[C@](O)(CO)C3	>4 µg/mL
CC1(C)Oc2ccc3ccc(=O)oc3c2[C@@H](OC(=O)c2cccc(Cl)c2)[C@@H]1OC1CCCCO1	83 µM
CC(=O)OC[C@]12[C@H](OC(C)=O)[C@H](OC(=O)c3cccnc3)[C@@H]3[C@@H](OC(=O)c4ccoc4)[C@@]14O[C@@]3(C)COC(=O)c1cccnc1[C@@H](C)[C@H](C)C(=O)O[C@@H]([C@H](OC(C)=O)[C@@H]2OC(C)=O)C4(C)O	1.95 µg/mL
CC1(C)Oc2ccc3ccc(=O)oc3c2[C@@H](OC(=O)C23CCC(C)(C(=O)O2)C3(C)C)[C@@H]1OC(=O)C12CCC(C)(C(=O)O1)C2(C)C	72.3 µM
COc1cc2ccc(=O)oc2c2c1OC(C)(C)[C@H](OC(=O)C13CCC(C)(C(=O)O1)C3(C)C)[C@@H]2OC(=O)C12CCC(C)(C(=O)O1)C2(C)C	>153 µM
COc1c(Br)c2c(c(OC)c1OC)-c1c(c(Br)c3c(c1OC)OCO3)C[C@H](C)[C@@](C)(O)C2	9 µg/mL
CCCn1ccc(=O)c2cnc(-c3ccncc3)nc21	30 µM
CC(=O)O[C@@H]1[C@H](OC(=O)CC(C)C)c2c(ccc3ccc(=O)oc23)OC1(C)C	>52 µM
CCn1ccc(=O)c2ccc(-c3ccncc3)nc21	27 µM
CC(=O)OC1C(N=[N+]=[N-])c2c(ccc3ccc(=O)oc23)OC1(C)C	115.9 µM
Oc1cc(O)c2c(c1)O[C@H](c1ccc(O)c(O)c1)[C@H](O)[C@H]2c1c(O)cc(O)c2c1O[C@@]1(c3ccc(O)c(O)c3)Oc3cc(O)c4c(c3[C@@H]2[C@H]1O)O[C@H](c1ccc(O)c(O)c1)[C@H](O)[C@H]4c1c(O)cc(O)c2c1O[C@H](c1ccc(O)c(O)c1)[C@H](O)C2	>25 µM
CC1(C)Oc2ccc3ccc(=O)oc3c2[C@@H](OC(=O)C23CCC(C)(C(=O)O2)C3(C)C)[C@H]1OC(=O)C12CCC(C)(C(=O)O1)C2(C)C	>32 µM
O=C(O)C1=C[C@@H](O)[C@@H](O)[C@H](OC(=O)c2cc(O)c(O)c(OC(=O)c3cc(O)c(O)c(O)c3)c2)C1	40 µM
CC1(C)Oc2ccc3ccc(=O)oc3c2C(OC(=O)c2cccc(Cl)c2)C1O	10.08 µM
C=C(C)[C@@H]1CC[C@]2(CO)CC[C@]3(C)[C@H](CC[C@@H]4[C@@]5(C)CC=CC(C)(C)[C@@H]5CC[C@]43C)[C@@H]12	28.3 µM
CC1(C)Oc2ccc3ccc(=O)oc3c2[C@@H](OC(=O)C23CCC(C)(C(=O)O2)C3(C)C)[C@H]1OC(=O)C12CCC(C)(C(=O)O1)C2(C)C	35 µM
CC(=O)OC[C@]12[C@H](OC(C)=O)[C@H](OC(C)=O)[C@@H]3[C@@H](OC(C)=O)[C@@]14O[C@@]3(C)COC(=O)c1cnccc1[C@@H](C)[C@@](C)(O)C(=O)O[C@@H]([C@H](OC(=O)c1ccoc1)[C@@H]2OC(C)=O)C4(C)O	>100 µg/mL
Oc1cc(O)c2c(c1)O[C@H](c1ccc(O)c(O)c1)[C@H](O)[C@H]2c1c(O)cc(O)c2c1O[C@H](c1ccc(O)c(O)c1)[C@H](O)[C@H]2c1c(O)cc(O)c2c1O[C@H](c1ccc(O)c(O)c1)[C@H](O)C2	>25 µM
C/C=C(/C)C(=O)OC1c2cc3c(c(OC)c2-c2c(cc4c(c2OC)OCO4)C[C@H](C)[C@H]1C)OCO3	40 µg/mL
O=C(O)C1=C[C@@H](O)[C@@H](O)[C@H](OC(=O)c2cc(O)c(O)c(O)c2)C1	25 µM
CC(=O)OC[C@]12[C@H](OC(C)=O)[C@H](OC(C)=O)[C@@H]3[C@@H](OC(C)=O)[C@@]14O[C@@]3(C)COC(=O)c1cccnc1[C@@H](C)[C@H](C)C(=O)O[C@@H]([C@H](OC(=O)c1ccccc1)[C@@H]2OC(C)=O)C4(C)O	>100 µg/mL
O=C(OC[C@H]1O[C@@H](OC(=O)c2cc(O)c(O)c(O)c2)[C@H](OC(=O)c2cc(O)c(O)c(O)c2)[C@@H](OC(=O)c2cc(O)c(O)c(O)c2)[C@@H]1OC(=O)c1cc(O)c(O)c(O)c1)c1cc(O)c(O)c(O)c1	45 µM
Nc1nc2c(ncn2[C@@H]2O[C@H](COP(=O)(O)O)[C@@H](O)[C@H]2O)c(=O)o1	>30 µg/mL
CCCCCCCCCCOC[C@H](CO[C@@]1(C(=O)O)C[C@H](OS(=O)(=O)O)[C@@H](NC(C)=O)[C@H]([C@H](OS(=O)(=O)O)[C@@H](COS(=O)(=O)O)OS(=O)(=O)O)O1)OCCCCCCCCCC	>200 µM

A second listing of 2 rows from above:

| compound | result |
|---|---|
| CC1(C)Oc2ccc3ccc(=O)oc3c2[C@@H](OC(=O)C23CCC(C)(C(=O)O2)C3(C)C)[C@@H]1OC(=O)C12CCC(C)(C(=O)O1)C2(C)C | 72.3 µM |
| CC(=O)OC[C@]12[C@H](OC(C)=O)[C@H](OC(C)=O)[C@@H]3[C@@H](OC(C)=O)[C@@]14O[C@@]3(C)COC(=O)c1cccnc1[C@@H](C)[C@H](C)C(=O)O[C@@H]([C@H](OC(=O)c1ccccc1)[C@@H]2OC(C)=O)C4(C)O | >100 µg/mL |